Measured values from several laboratories, pooled; numbers as filed in NIAID ChemDB.

Common to all: whole-cell or culture tests; organism: Candida albicans

Lines come from different laboratories, so protocols vary. An empty or dashed field is not shown. A number after MIC or MFC names an inhibition level or a share of isolates.

compound,read-out,read by,strain,result
Clc1ccc(COC(Cn2ccnc2)c2ccc(Cl)cc2Cl)c(Cl)c1,MIC90,-,16 strains,1 µg/mL
CO/N=C/c1ccc(OP2(Oc3ccc(/C=N/OC)cc3OC)=NP(Oc3ccc(/C=N/OC)cc3OC)(Oc3ccc(/C=N/OC)cc3OC)=NP(Oc3ccc(/C=N/OC)cc3OC)(Oc3ccc(/C=N/OC)cc3OC)=N2)c(OC)c1,MIC,agar diffusion / agar,-,>100 µg/mL
O=C(O)O,MIC50,broth dilution,ATCC 90028,80 µg/mL
Brc1ccc(CO/N=C2\c3ccccc3OCC2n2cncn2)cc1,MIC,-,ATCC 10231,8 µg/mL
O=C(Nc1ccc2oc(-c3ccccc3)nc2c1)c1ccc(F)cc1,MIC,-,RSKK 628,50 µg/mL
COC(/C=C/c1ccccc1)=C1/C(=O)C=C(C)C1=O,MIC50,-,Isolate 1 azole-susceptible,0.6 µg/mL
CN1C(=O)CSc2cc(C(Cn3ccnc3)OCc3ccc(Cl)cc3Cl)ccc21,MIC,-,CA6,>250 µg/mL
Clc1ccc(COC(Cn2ccnc2)c2ccc(Cl)cc2Cl)c(Cl)c1,MIC,-,ATCC11651,25 µg/mL
CC(C)(C)c1ccc(C(=O)Nc2ccc3oc(-c4ccccc4)nc3c2)cc1,MIC,-,RSKK 628,100 µg/mL
C[C@@H](c1ncncc1F)[C@](O)(Cn1cncn1)c1ccc(F)cc1F,MIC90,-,660 isolates,0.06 µg/mL
CN1C(=O)CSc2cc(C(Cn3cncn3)C(O)Cn3cncn3)ccc21,MIC,-,CA6,>250 µg/mL
COc1cc(O)c2c(c1)C(=O)c1c(cc3c(c1O)-c1c(cc(C)c(C(=O)NCC(=O)O)c1O)[C@H](O[C@@H]1O[C@H](C)[C@H](N)[C@H](O[C@@H]4OC[C@@H](O)[C@H](O)[C@H]4O)[C@H]1O)[C@H]3O)C2=O,MIC,-,IAM4888,3.1 µg/mL
O=C(Nc1ccc2oc(-c3ccccc3)nc2c1)c1ccccc1Cl,MIC,-,RSKK 628,25 µg/mL
COc1cc(/C=N/OC(C)=O)ccc1OP1(Oc2ccc(/C=N/OC(C)=O)cc2OC)=NP(Oc2ccc(/C=N/OC(C)=O)cc2OC)(Oc2ccc(/C=N/OC(C)=O)cc2OC)=NP(Oc2ccc(/C=N/OC(C)=O)cc2OC)(Oc2ccc(/C=N/OC(C)=O)cc2OC)=N1,MIC,agar diffusion / agar,-,>100 µg/mL
CCCCCCCCC[C@@H]1CC(=O)NCC(=O)N[C@@H](CCCCN)C(=O)N[C@@H](C(C)C)C(=O)N1,MIC,-,ATCC 24433,4 µg/mL
C1=Cc2ccccc2C(c2ccc(N=Cc3ccccc3)cc2)c2ccccc21,MIC,-,ATCC 24433,>1000 µg/mL
Clc1ccc(C(Cn2ccnc2)OCc2csc3c(Cl)cccc23)c(Cl)c1,MIC,-,16 strains,2 µg/mL
COc1ccc(C(=O)Nc2ccc3oc(-c4ccccc4)nc3c2)cc1,MIC,-,RSKK 628,50 µg/mL
CCCCCCCCCCC[C@@H]1CC(=O)NCC(=O)N[C@@H](CCCCN)C(=O)N[C@@H](C(C)C)C(=O)N1,MIC,-,ATCC 24433,128 µg/mL
O[C@](Cn1cncn1)(Cn1cnc(/C=C/c2ccc(OCC(F)(F)C(F)F)cc2)n1)c1ccc(F)cc1F,MIC,-,Isolate V1-5,1 µg/mL
CCC(=O)O/N=C/c1ccc(OP2(Oc3ccc(/C=N/OC(=O)CC)cc3OC)=NP(Oc3ccc(/C=N/OC(=O)CC)cc3OC)(Oc3ccc(/C=N/OC(=O)CC)cc3OC)=NP(Oc3ccc(/C=N/OC(=O)CC)cc3OC)(Oc3ccc(/C=N/OC(=O)CC)cc3OC)=N2)c(OC)c1,MIC,agar diffusion / agar,-,>100 µg/mL
C[C@H]1[C@H](O)[C@@H](C)/C=C/C=C/C=C/C=C/C=C/C=C/C=C/[C@H](O[C@@H]2O[C@H](C)[C@@H](O)[C@H](N)[C@@H]2O)C[C@@H]2O[C@](O)(C[C@@H](O)C[C@@H](O)CC[C@H](O)[C@@H](O)C[C@@H](O)CC(=O)O[C@H]1C)C[C@H](O)[C@H]2C(=O)O,MIC,broth dilution,24433,0.03 µg/mL
COC1CC2CCC(C)C(O)(O2)C(=O)C(=O)N2CCCCC2C(=O)OC(C(C)CC2CCC(O)C(OC)C2)CC(=O)C(C)/C=C(\C)[C@@](O)(c2ccc(C)s2)C(OC)C(=O)C(C)CC(C)/C=C/C=C/C=C/1C,MFC,-,TOR1-1/TOR1,>100 µg/mL
Fc1ccccc1CO/N=C1\c2ccccc2OCC1n1cncn1,MIC,-,ATCC 10231,>64 µg/mL
CCCCCCCCC[C@@H]1CC(=O)NCC(=O)N[C@@H](CCCCN(C)Cc2ccccc2)C(=O)N[C@@H](C(C)C)C(=O)N1,MIC,-,ATCC 24433,>128 µg/mL
COc1cc(/C=N/O)ccc1OP1(Oc2ccc(/C=N/OC(=O)c3ccccc3Cl)cc2OC)=NP(Oc2ccc(/C=N/O)cc2OC)(Oc2ccc(/C=N/OC(=O)c3ccccc3Cl)cc2OC)=NP(Oc2ccc(/C=N/OC(=O)c3ccccc3Cl)cc2OC)(Oc2ccc(/C=N/OC(=O)c3ccccc3Cl)cc2OC)=N1,MIC,agar diffusion / agar,-,>100 µg/mL
COc1ccc2cc3[n+](cc2c1OC)CCc1cc2c(cc1-3)OCO2,MIC,-,ATCC28838,125 µg/mL
CCCCCCCCC[C@@H]1CC(=O)NCC(=O)N[C@@H](CCCCN(C)C)C(=O)N[C@@H](C(C)C)C(=O)N1,MIC,-,ATCC 24433,8 µg/mL
COC1CC2CCC(C)C(O)(O2)C(O)C(O)N2CCCCC2C(=O)OC(C(C)CC2CCC(O)C(OC)C2)CC(=O)C(C)/C=C(\C)C(O)C(OC)C(=O)C(C)CC(C)/C=C/C=C/C=C/1C,MIC,-,TOR1-1/TOR1,>100 µg/mL
Clc1ccc(CO/N=C2/c3ccccc3OCC2n2cnnc2)cc1,MIC,-,ATCC 10231,32 µg/mL
O=C(Cc1ccc(Br)cc1)Nc1ccc2oc(-c3ccccc3)nc2c1,MIC,-,RSKK 628,25 µg/mL
Clc1ccccc1C(c1ccccc1)(c1ccccc1)n1ccnc1,MIC50,-,16 strains,0.125 µg/mL
CCCCCCCCC[C@@H]1CC(=O)NCC(=O)N[C@@H](CCCN)C(=O)N[C@@H](C(C)C)C(=O)N1,MIC,-,ATCC 24433,4 µg/mL
CN1C(=O)CSc2cc(C(Cn3ccnc3)OCc3ccc(Cl)cc3)ccc21,MIC,-,CA6,46 µg/mL
NC(=NC1CCCC1)c1ccc(-c2ccc(-c3ccc(C(N)=NC4CCCC4)cc3)o2)cc1,MIC,-,ATCC 76615,12.5 µg/mL
CCc1ccc(-c2nc3cc(NC(=O)Cc4ccccc4)ccc3o2)cc1,MIC,-,RSKK 628,50 µg/mL
CN1C(=O)CSc2cc(C(Cn3cncn3)C(O)Cn3ccnc3)ccc21,MIC,-,CA6,>250 µg/mL